Compound potency records, mixed from different reports. Data source: NIAID ChemDB in PubChem.

Shared fields: growth or infection tests; organism: Cryptococcus neoformans

Rows are shuffled and stem from different studies. ECn is the concentration giving n% inhibition of infection, replication or growth. Two numbers with a dash give a range or band. MIC50, MIC90 and the like: level of inhibition, or share of isolates inhibited. An empty or dashed field is not shown.

| structure | method | measure | strain | value |
|---|---|---|---|---|
| Cc1cc(C[n+]2cccc(C=NO)c2)on1.[Br-] | broth dilution | EC50 | - | >20 µg/mL |
| COc1ccccc1N1CCN(CCc2nnn([C@@H](C)[C@](O)(Cn3cncn3)c3ccc(F)cc3F)n2)CC1 | - | MIC | LA314 | >8 µg/mL |
| Cc1noc(=S)n1-c1ccccc1 | - | MIC | - | 0.52 µg/mL |
| CC(=O)OCC1=C(C(=O)O)N2C(=O)C(NC(=O)CSC(=S)N(C)c3ccccc3)C2SC1 | - | MIC | - | >250 µg/mL |
| COc1cc(O)c2c(c1)C(=O)c1c(cc3c(c1O)-c1c(cc(C)c(C(=O)NC(CO)C(=O)O)c1O)[C@H](OC1OC(C)C(O)C(OC4OCC(O)C(O)C4O)C1O)C3O)C2=O | - | MIC | D49 | 3.1 µg/mL |
| CCn1nc(-c2cc(C)on2)c(N=O)c1C | - | MIC | - | 3.1 µM |
| CCCCCCCCOc1ccc(-c2ccc(C(=O)NC3CC(NCCN)CNC(=O)[C@@H]4[C@@H](O)[C@@H](C)CN4C(=O)[C@@H](CO)NC(=O)[C@H]([C@H](O)Cc4ccccc4)NC(=O)[C@@H]4C[C@@H](O)CN4C(=O)[C@H]([C@@H](C)O)NC3=O)cc2)cc1 | - | MIC90 | 30 isolates | 8.8 µg/mL |
| O/N=C/c1ccc[n+](Cc2cc(C[n+]3cccc(/C=N/O)c3)on2)c1.[Br-].[Br-] | broth dilution | EC50 | - | >20 µg/mL |
| CCCCCCCCCCCCC(OC)C(=O)O | - | MIC | ATCC66031 | 110 µM |
| CCCCCOc1ccc(-c2cc(-c3ccc(C(=O)N[C@H]4C[C@@H](O)[C@@H](O)NC(=O)[C@@H]5[C@@H](O)[C@@H](C)CN5C(=O)[C@H]([C@H](O)CC(N)=O)NC(=O)[C@H]([C@H](O)[C@@H](O)c5ccc(O)c(OS(=O)(=O)O)c5)NC(=O)[C@@H]5C[C@@H](O)CN5C(=O)[C@H]([C@@H](C)O)NC4=O)cc3)no2)cc1 | - | MIC | FMR 8408 | 64 µg/mL |
| COc1ccc(C(=O)CC(=O)c2ccc3sccc3c2OC)cc1 | - | MIC | - | 6.25 µg/mL |
| Cc1ccc(-n2c(-c3ccncc3)nsc2=O)cc1 | - | MIC | - | 0.09 µg/mL |
| C[C@@H](n1cnc2cc(Cl)ccc2c1=O)[C@](O)(Cn1cncn1)c1ccc(F)cc1F | - | MIC | 3 strains | 0.01 µg/mL |
| COc1ccc(N2CCN(CCc3nnnn3[C@@H](C)[C@](O)(Cn3cncn3)c3ccc(F)cc3F)CC2)cc1 | - | MIC | LA314 | >16 µg/mL |
| CC(=O)OCC1=C(C(=O)O)N2C(=O)C(NC(=O)CSC(=O)N3CCCC3)C2SC1 | - | MIC | - | >250 µg/mL |
| C[C@H](n1nnc(CCN2CCN(c3ccccc3Cl)CC2)n1)[C@](O)(Cn1cncn1)c1ccc(F)cc1F | - | MIC | LA314 | 8 µg/mL |
| CCCCC(=O)OC1CC(OC(C)C(C)C(O)C(C)C(O)C(C)C2OC(=O)/C=C/CC(O)CC(O)CC(O)CCC(C)C(O)C[C@@]3(O)O[C@H](CC(O)CC(OC(=O)CC(=O)O)CCCC(O)C4OC4C2C)C[C@H](O)[C@H]3O)OC(C)C1O | - | MIC | ATCC90112 | >100 µg/mL |
| Cc1cc(-c2cc(C)n(C)n2)no1 | - | MFC | - | >200 µM |
| C[C@@H](SC1COC(/C=C/C=C/c2ccc(C#N)cc2F)OC1)[C@](O)(Cn1cncn1)c1ccc(F)cc1F | - | MIC90 | - | 0.008 µg/mL |
| Cn1c(-c2ccccn2)noc1=S | - | MIC | - | 0.51 µg/mL |
| O/N=C/c1cccc[n+]1Cc1csc2ccccc12.[Cl-] | broth dilution | EC50 | - | >20 µg/mL |
| Clc1ccccc1CN(Cc1ccc(-c2ccccc2)cc1)n1ccnc1 | - | MFC | - | 33 µM |
| CCCn1nc(-c2cc(C)on2)c(N=O)c1C | - | MFC | - | 2.4 µM |
| COc1ccc(-c2oc3c(ccc4sccc43)c(=O)c2O)cc1 | - | MIC | - | 50 µg/mL |
| CCN1C2=NC[C@@H](CC3CCCCC3)N2C[C@@H]1Cc1ccccc1 | - | MIC | ATCC 32045 | 62–125 µg/mL |
| C=C1CC[C@@H]2C[C@H]1C2(C)C.C[C@@H]1[C@H](O)[C@@H](C)/C=C/C=C/C=C/C=C/C=C/C=C/C=C/[C@H](O[C@@H]2O[C@H](C)[C@@H](O)[C@H](N)[C@@H]2O)C[C@@H]2O[C@](O)(C[C@@H](O)C[C@@H](O)[C@H](O)CC[C@@H](O)C[C@@H](O)CC(=O)O[C@H]1C)C[C@H](O)[C@H]2C(=O)O | broth dilution | MIC | T1-444 serotype A | 78.12 µg/mL |
| CC[C@@]1(O)C[C@H](O[C@H]2C[C@H](N(C)C)[C@H](O[C@H]3C[C@H](O)[C@H](O[C@H]4CCC(=O)[C@H](C)O4)[C@H](C)O3)[C@H](C)O2)c2c(cc3c(c2O)C(=O)c2c(O)cccc2C3=O)[C@H]1C(=O)OC | - | MIC | N-2 | 0.8 µg/mL |
| CCn1c(-c2ccccn2)noc1=S | - | MIC | - | 0.48 µg/mL |
| CCCCCCCCCOCC(OC)C(=O)O | - | MIC | ATCC66031 | 80 µM |
| Cn1c(-c2ccncc2)noc1=S | - | MIC | - | 0.51 µg/mL |
| CC1CC(c2ccncc2)Nc2ccc(Br)cc21 | - | MIC100 | ATCC 32264 | >250 µg/mL |
| C1CCC(C[C@H]2CN3C(=NC[C@H]3C3CCCCC3)N2CCC23CC4CC(CC(C4)C2)C3)CC1 | - | MIC | ATCC 32045 | 4–8 µg/mL |
| Cc1ccc(NC(=O)CN(C)CC(O)(Cn2cncn2)c2ccc(F)cc2F)cc1 | - | MIC80 | - | 4 µg/mL |
| CC(C)(C)C1CCC(CN2C3=NC[C@@H](CC4CCCCC4)N3C[C@H]2C2CCCCC2)CC1 | - | EC50 | ATCC 32045 | 2 µg/mL |
| C=C1C(NC(=O)C(C)Oc2ccccc2)C2SC(C)(C)C(C(=O)[S-])N12 | - | MIC | - | 250 µg/mL |
| O/N=C/c1cccc[n+]1Cc1ccc(Br)s1.[Cl-] | broth dilution | EC50 | - | >20 µg/mL |
| CCCn1c(-c2ccccn2)noc1=S | - | MIC | - | 0.22 µg/mL |
| CCC(C)n1ncn(-c2ccc(N3CCN(c4ccc(OC[C@H]5CO[C@](Cn6cncn6)(c6ccc(Cl)cc6Cl)O5)cc4)CC3)cc2)c1=O | - | MIC50 | 37 strains | 0.094 µg/mL |
| C[C@H](n1nnc(CCN2CCN(Cc3ccccc3)CC2)n1)[C@](O)(Cn1cncn1)c1ccc(F)cc1F | - | MIC | LA314 | >16 µg/mL |
| Cn1ccc2c(O)c(C(=O)/C=C/c3ccccc3)ccc21 | - | MIC | - | 25 µg/mL |
| CN(CC(=O)Nc1ccc(C(C)(C)C)cc1)CC(O)(Cn1cncn1)c1ccc(F)cc1F | - | MIC80 | - | 0.0625 µg/mL |
| CC(C)(C)C1CCC(CN2C3=NC[C@@H](CC4CCCCC4)N3C[C@@H]2CC2CCCCC2)CC1 | - | EC50 | ATCC 32045 | 5.5 µg/mL |
| CN[C@H]1CC[C@@H](c2ccc(Cl)c(Cl)c2)c2ccccc21 | broth dilution | MFC | 3-10 | 10 µg/mL |
| S=c1nc(-c2ccccc2)[nH]s1 | - | MIC | - | 0.06 µg/mL |
| Cc1cc(-c2cc(C)on2)n(CCO)n1 | - | MIC | - | >200 µM |
| Clc1ccc(CN(Cc2ccc(-c3ccccc3)cc2)n2ccnc2)cc1 | - | MFC | - | 200 µM |
| CCn1nc(C)cc1-c1cc(C)on1 | - | MIC | - | >200 µM |
| CC(=O)OCC1=C(C(=O)O)N2C(=O)C(NC(=O)CC(=S)Nc3ccccc3)C2SC1 | - | MIC | - | 8 µg/mL |
| C[C@@H](SC1COC(/C=C/C=C/c2ccc(C#N)cc2F)OC1)[C@](O)(Cn1cncn1)c1ccc(F)cc1F | - | MIC | TIMM0362 | 0.016 µg/mL |
| C[C@H](n1nnnc1CCN1CCN(c2cccc(C(F)(F)F)c2)CC1)[C@](O)(Cn1cncn1)c1ccc(F)cc1F | - | MIC | LA314 | 0.25 µg/mL |
| CC(C)(C)C1CCC(CN2C3=NC[C@@H](C4CCCCC4)N3C[C@@H]2C2CCCCC2)CC1 | - | MIC | ATCC 32045 | 4–8 µg/mL |
| COc1ccc(/C=C/C(=O)c2ccc3sccc3c2O)cc1 | - | MIC | - | >50 µg/mL |
| Fc1ccc(CN(Cc2ccc(-c3ccccc3)cc2)n2ccnc2)c(F)c1 | - | MFC | - | 33 µM |
| Cn1ccc2c3oc(-c4ccccc4)cc(=O)c3ccc21 | - | MIC | - | 12.5 µg/mL |
| C[C@@H](c1ncncc1F)[C@](O)(Cn1cncn1)c1ccc(F)cc1F | - | MIC90 | 12 strains | 0.12 µg/mL |
| COc1ccccc1N1CCN(CCc2nnnn2[C@@H](C)[C@](O)(Cn2cncn2)c2ccc(F)cc2F)CC1 | - | MIC | LA314 | 8 µg/mL |
| CC(=O)C1CCc2c(ccn2C)C1=O | - | MIC | - | 50 µg/mL |
| Cc1ccccc1CN(Cc1ccc(-c2ccccc2)cc1)n1ccnc1 | - | MFC | - | 5.5 µM |
| CC(=O)OCC1=C(C(=O)O)N2C(=O)C(NC(=O)CSC(=S)N(C)C)C2SC1 | - | MIC | - | 63 µg/mL |

For reference, 5 entries again:

structure | method | measure | strain | value
Cn1ccc2c(O)c(C(=O)/C=C/c3ccccc3)ccc21 | - | MIC | - | 25 µg/mL
CC(=O)OCC1=C(C(=O)O)N2C(=O)C(NC(=O)CSC(=S)N(C)C)C2SC1 | - | MIC | - | 63 µg/mL
COc1ccc(N2CCN(CCc3nnnn3[C@@H](C)[C@](O)(Cn3cncn3)c3ccc(F)cc3F)CC2)cc1 | - | MIC | LA314 | >16 µg/mL
C[C@@H](c1ncncc1F)[C@](O)(Cn1cncn1)c1ccc(F)cc1F | - | MIC90 | 12 strains | 0.12 µg/mL
CC(C)(C)C1CCC(CN2C3=NC[C@@H](C4CCCCC4)N3C[C@@H]2C2CCCCC2)CC1 | - | MIC | ATCC 32045 | 4–8 µg/mL